# Fitness effects across NS2B and the NS3 protease domain of Zika virus

Protein: NS2B and the protease part of NS3 of Zika virus strain MR766. Positions count along the chain below; NS2B spans 2-131 and NS3 starts at 132.
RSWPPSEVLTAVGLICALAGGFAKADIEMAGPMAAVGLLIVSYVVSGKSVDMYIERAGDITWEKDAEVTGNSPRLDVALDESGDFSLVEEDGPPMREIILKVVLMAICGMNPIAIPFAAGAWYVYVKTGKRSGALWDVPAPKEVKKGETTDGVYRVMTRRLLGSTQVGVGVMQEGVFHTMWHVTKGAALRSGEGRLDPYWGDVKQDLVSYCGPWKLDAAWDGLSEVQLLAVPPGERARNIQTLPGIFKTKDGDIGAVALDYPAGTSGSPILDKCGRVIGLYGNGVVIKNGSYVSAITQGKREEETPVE

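Pools of virus carrying all single amino acid changes were selected for growth in Huh-7.5 cells. The effect is the change in frequency of a mutant, normalised to wild type, as a mean of three replicate libraries (two for positions 207-308). The study looked for pockets that tolerate few changes, as a guide for inhibitor design.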

Values are log2 effects on growth: 0 is wild type, lower means poorer growth.
Substitutions are written as wild-type residue, site number, new residue.
All changes here are to isoleucine.
The region was split into three libraries (1-103, 104-206, 207-308).

With K48I the assay gave -4.67. With S49I the assay gave -4.72. For V50I the result was -1.65. For D51I the result was -5.34. With M52I the assay gave -2.81.

Y53I read -4.06. For E55I the result was -2.57. For R56I the result was -2.78. A57I read -4.41. G58I read -5.46.

D59I read -4.84. T61I read -0.95. With W62I the assay gave -5.97. E63I gave -2.89. With K64I the assay gave -0.34.

D65I read -5.77. A66I read -6.11. E67I gave -1.60. With V68I the assay gave -1.58. With T69I the assay gave -6.37.

G70I read -5.89. For N71I the result was -2.88. S72I gave -5.41. P73I gave -2.89. R74I read -3.19.

L75I read -0.07. D76I gave -1.39. For V77I the result was -6.16. A78I gave 0.15. L79I read -1.11.

With D80I the assay gave -5.98. E81I gave -5.69. S82I gave -6.85. For G83I the result was -6.00. D84I read -6.19.

For F85I the result was -3.91. S86I read -3.06. L87I read -4.76. With V88I the assay gave -0.05. E89I gave -3.77.

E90I read -2.39. With D91I the assay gave -2.53. With G92I the assay gave -3.75. P93I gave -1.11. P94I gave -2.10.

For M95I the result was -1.17. With R96I the assay gave -2.96. E97I gave -4.50. For L100I the result was -1.80. K101I read -6.86.

V102I read 0.39. V103I read -0.24. For L104I the result was -4.45. For M105I the result was -5.52. For A106I the result was 0.20.

For C108I the result was -6.08. G109I gave -5.60. For M110I the result was 4.21. For N111I the result was -3.59. P112I gave -4.68.

A114I read -2.41.

Position 1 still belongs to NS2A. In the paper, -1 or higher counts as tolerated.
Six mutants with high scores were retested singly and none clearly outgrew wild type, so positive values are not proof of better growth.

Values reported by Ni et al. 2025 (doi:10.1038/s41467-025-63602-z).